Experiment [1] deals with hemagglutinin (HA) of influenza A/Solomon Islands/3/06 (H1N1) on whole virions (Influenza A virus A/Solomon …).
Experiment [2] deals with T1, hemagglutinin (HA) of influenza A/Wisconsin/67/05 (H3N2) on whole virions (Influenza A virus …).
T1 construct: whole, on cells
The experiment is described as follows: ELISA; BCC supernatant on coated inactivated whole virions. (In general: ELISA stands for enzyme-linked immunosorbent assay.)

Experiment [3] has as its target Hemagglutinin (HA) of influenza A virus A/Japan/305/57 H2N2, on whole virions (Influenza A virus A/Japan/305/1957 …).

B1: TCN-526 (5084_C17) (antibody, V domains shown)
VH: EVLMVESGGGLVQPGGSVRLSCVASGFSFSSHWMTWVRQAPGKGLEWVANIEDDGGDKYYVDSVKGRFIISRDNAKNSVYLQMNSLRAEDTAVYFCARGSGSSDRSDYDPHYYYYLDVWGKGATVTVSS
VL: DIQLTQSPSSLSASVGDRVTITCRASQSISRYLNWYQQKPGKAPKLLLFAASTLLDGVPSRFSGSGSGTDFTLTISSLQPEDFATYYCQRNHSPSWTFGQGTRVEIK
With B1, the “ELISA virus binding (OD450)” value in experiment [1] stood at 0.06 OD450; in experiment [2], 3.65 OD450.

B2: TCN-521 (3280_D18) (antibody, V domains shown)
VH: EVQLVQSGGGLVQPGGSLRLACVVSGFTVTSNYITWVRQAPGKGLEWVSVIYSHGRAYYSASVNGRFTISRHTSKNTVYLEMNSLRPEDTAVYYCAGGGLVGGYDEYFFDYWGQGTLATVSS
VL: ETVLTQSPGTLSLTPGERATLSCRVGQSVSGSHLAWYQQKPGQAPRLLIYGASSRATGIPDRFGGSVSGTDFTLTISRLEPEDSAVYYCQQYGDSRYTFGQGTKLEIK
For the molecule B2, the “ELISA virus binding (OD450)” value in experiment [2] was determined as 1.1 OD450.

B3: TCN-543 (5081_G23) (antibody, V domains shown)
VH: QVHLVQSGAEVRKPGDSVKVSCKTSGYTFSTYPVAWVRQVPGQGLEWMGWISTYNGNTNFAQNFQGRVTLTTDTTTNTAYMEVRSLKFDDTAVYYCARVEGSYRDFWNNQNRFDPWGQGTLVTVSS
VL: SYVLTQPPSVSVAPGQTARISCGGSNIGGKSVHWYQQKPGQAPVLVVYDDSGRPSGIPERFSGSNSGDTATLTISRVEAGDEADYFCQVWDNFGGVFGTGTKVTVL
With B3, in experiment [2], the “ELISA virus binding (OD450)” value came to 0.07 OD450.

B4: TCN-528 (5087_P17) (antibody, V domains shown)
VH: QVQLVQSGSEVKKPGASVKVSCKASGYTFTNYDINWIRQAPGQGLEWMGWINPNSGTTGSAQRFQGRVTITVDTSITTVYMELSSLRSDDTAIYYCARGRELLRLQHFLTDSQSERRDCFDPWGQGTLVTVSS
VL: DIQMTQSPSSLSASVGDRVTITCRANQDIGIYLNWYQQNPGKVPKLLLHGASSLQGGVPSRFSASGSGTDFTLTIHSLQPEDLATYYCQQSRRLPYTFGQGTRVELK
With B4, the “ELISA virus binding (OD450)” value in experiment [1] is 3.62 OD450; in experiment [2], 0.24 OD450.

B5: TCN-557 (5081_A04) (antibody, V domains shown)
VH: QVQLVQSGAEVKKPGASVKVSCKASGHTFTGYYIHWVRQAPGQGLEWMGWINPDSGATSSAQNFQGRVTMTGDTSSSTAYMELSRLSFDDTAVYYCARVLFTSPFDFWGEGTLVTVSS
VL: QAVVTQEPSLAVSPGGTVTLTCGSSTGAVTRGHYPYWFQQKPGQAPRALIYDSAGNRHSWTPARFSGSLLGGKAALTLSGAQPEDEAEYYCLLSYSGVWVFGGGTKLTVL
Consider B5, for which the “ELISA virus binding (OD450)” value in experiment [1] amounted to 2.32 OD450; in experiment [2], 0.07 OD450.

B6: TCN-527 (5086_C06) (antibody, V domains shown)
VH: QVQLQESGPGLVKPSETLSLNCAVSGGSISNYYWSWIRQPPGKGLEWIGYISYNGRPKYNPSLTSRVTISVDTSKDQFSLELRSVTAADTALYYCARETRFGELLSPYDAFEIWGQGTMVTVSS
VL: DIQMTQSPSSLSASVGDRVTMTCRASQNIRSYLNWYQQRPGTAPKLLIYAASTLHSGVPSRFSGGGSGTDFTLTINNLQPEDFASYYCQQSYDNPQTFGQGTKVEIK
Take B6: the “ELISA virus binding (OD450)” value in experiment [1] amounted to 3.03 OD450; in experiment [2], 0.07 OD450.

B7: TCN-529 (5297_H01) (antibody, V domains shown)
VH: QITLRESGPTLVKPTQTLTLTCTFSGFSLSTNGVNVGWIRQPPGKALEWLALIYWDDDKRYSPSLKRRLTITKDTSKNQVVLTLTNMDPVDTATYYCAHRPDFYGDFEYWGPGTLVTVSS
VL: QSALTQPASVSGSPGQSITISCTGSSSDIGGYNYVSWYQQHPGKAPKLMIYDVNNRPSGVSNRFSGSKSGNTASLTISGLQTDDEADYYCGSYTGSPHYVFGTGTKVTVL
Consider B7, for which the “ELISA virus binding (OD450)” value turned out to be 0.07 OD450 in experiment [1] and 3.62 OD450 in experiment [2].

B8: TCN-555 (5246_L16) (antibody, V domains shown)
VH: QVQLVQSGAEVKRPGSSVKVSCTASGGIFRKNAISWVRQAPGQGLEWMGGIIAVFNTANYAQKFQNRVKITADESGNTAYMELSSLTSDDTAVYYCASHPKYFYGSGSYPDFWGQGTLVTVSS
VL: QSALTQPRSVSGSPGQSITISCTGGSSDIGASNSVSWYQQHPGKAPKLVIFDVTERPSGVPHRFSGSKSGNTASLTVSGLQPDDEADYFCCAYGGKYLVVFGGGTKVTVL
Consider B8, for which the results for the “ELISA virus binding (OD450)” value in experiment [1] and in experiment [2] were 2.89 OD450 and 0.06 OD450, respectively.

B9: TCN-563 (5237_B21) (antibody, V domains shown)
VH: QVQLAQSGAEVKRPGSSVKVSCTASGGIFRKNAISWVRQAPGQGLEWMGGIIAVFNTANYAQKFQGRVKITADESGNTAYMELSSLRSDDTAVYYCASHPKYFYGSGSYPDFWGQGTLVTVSS
VL: QSALTQPRSVSGSPGQSVTISCTGSSSDVGASNSVSWYQQHPGKAPKLVIYDVTERPSGVPHRFSGSKSGNTASLTVSGLQPEDEADYFCCAYGGKYLVVFGGGTKVTVL
As for B9, the “ELISA virus binding (OD450)” value in experiment [1] was 3.62 OD450; in experiment [2] it was 0.07 OD450.

B10: TCN-546 (5089_L08) (antibody, V domains shown)
VH: QVQLQQWGAGLLKPSETLSLTCGVYGGSLSDYYWSWIRQPPGKGLEWIGEINHSGGTNYNPSLKRRVTISVDTSKKQFSLKMNSVTAADTAVYYCARGTDPDTEVYCRAGNCAAFDFWGQGTLVTVSS
VL: EIVLTQSPGTLSLSPGERATLSCRASHFVIGRAVAWYQQKPGQAPRLLIYGASSRATGIPDRFSGSGSGTDFTLTISRLETEDFAVFYCQHYGSSPRYAFGQGTKLEIK
As to B10, the “ELISA virus binding (OD450)” value in experiment [3] stood at 0.07 OD450.

B11: TCN-560 (5084_P10) (antibody, V domains shown)
VH: EVQLVESGGGLVQPGGSLRLSCAASGFIFRNYWMSWVRQAPGKGLEWVANIKQDGREKYYVDSLRGRVNISRDNAENSLYLHMNSLRVEDTAVYFCARARMVVVTGDGFDVWGHGTMVTVSS
VL: DIQMTQSPSSLSASVGDRVTITCRASQNIKRYFNWYQQKPGKAPKLLIYAASNLENGVPSRFSGSGSGTDFTLTISSLQPEDFATYYCQQSFSKSWTFGQGTNVDIK
B11: the “ELISA virus binding (OD450)” value was 3.63 OD450 in experiment [1] and 0.07 OD450 in experiment [2].

B12: TCN-531 (5091_H13) (antibody, V domains shown)
VH: EVQLVESGGDLVQPGRSLKLSCTGSGFTFGDYGVTWVRQAPGKGLEWVGFIRTRPWGGTADTAASVKGRFTISRDDSKSLAYLQMNSLKTEDTAVYYCCRDAPPNVEVASMTNWYFDLWGRGTLVTVSS
VL: DIQLTQSPSSLSASVGDRVTITCRASQGILNCLAWYQQKPGKVPNLLMYAASTLQSGVPSRFSGSGFGTDFTLTISSLQPEDVATYYCQTYGGVSTFGGGTKVEIR
Take B12: the “ELISA virus binding (OD450)” value in experiment [1] was 3.23 OD450; in experiment [2], 3.45 OD450.

B13: TCN-530 (5248_H10a) (antibody, V domains shown)
VH: QVQLVQSGAEVRKPGSSVKVSCKASGGPFMSYAIGWVRQAPGQGLEWMGGINPVFGRPHYAQKFQGRVTIATDDSTKTSYMELSSLTSEDTGMYYCASRYSRSSPGTFESWGQGTLVTVSS
VL: EIVMTQFPATLSVSPGERVTLSCRASQSVSNNLAWYQQKPGQPPRLLIYDASTRATGVPAKFSGTGSGTEFTLSISSLQSEDFAVYYCQQYHNWPPSYSFGLGTKLEIK
For the molecule B13, the “ELISA virus binding (OD450)” value in experiment [1] came to 3.52 OD450; in experiment [2] it was 0.06 OD450.

B14: TCN-564 (5256_A17b) (antibody, V domains shown)
VH: QVQLVQSGADVKKPGSSVTVSCKASGGSFSNYGINWVRQAPGQGLEWMGGIIPLINAPNYAPKFQGRVTITADMFSNIVSLQLTSLRTDDTAVYYCARRKMTTAIDYWGQGTLVTVSS
VL: QPVLSQPPSASASLGASVTLTCTLSSGFDNYQVAWYQQRPGKGPRFVMRVGNGGNVASKGDGIPDRFSVSGSGLNRYLTIKNIQEDDESDYYCGADHGSGNNFVSPYVFGGGTKLTVL
B14: the entries for the “ELISA virus binding (OD450)” value in experiment [1] and in experiment [2] were 3.54 OD450 and 0.1 OD450, respectively.
